Results of unrelated studies side by side (data: NIAID ChemDB).

Common to all: whole-cell or culture tests; species: Mycobacterium tuberculosis

Neighbouring rows are from separate reports. Two numbers with a dash give a range or band. Inhibition is in % at the dose shown (toxicity tests: loss of growth or viability). MIC bound: limit read from a one-dose screen. Blank or dashed fields: not listed here. ECn is the concentration giving n% inhibition of infection, replication or growth. MIC50, MIC90 and the like: level of inhibition, or share of isolates inhibited.

compound,strain,changes,read by,read-out,dose,result
Cc1ccc(NC(=O)C2(c3cccs3)CCOCC2)cc1C,CDC1551,,turbidity,EC50,,200 µM
FC(F)(F)c1ccc(-c2nc3ccccc3[nH]2)cc1,H37Rv,,radiometric,MIC,,>500 µM
COC(=O)C1=C(C)N(c2ccccc2[N+](=O)[O-])C(C)=C(C(=O)OC)C1c1ccc(-c2ccc(F)c(Cl)c2)o1,H37Rv,,BACTEC / radiometric,inhibition,6.25 µg/mL,27%
NNC(=O)c1ccncc1,188 strains,,,MIC50,,0.06 µg/mL
COc1ccc(-c2nc3ccc(C)cc3[nH]2)cc1OC,H37Rv,,radiometric,MIC,,>500 µM
S=C(Nc1ccccc1)Nc1ccccc1SC(/C=C/NNC1=NC(c2ccccc2)C(c2ccccc2)=NN1)c1ccccc1,H37Rv,,BACTEC,inhibition,12.5 µg/mL,37%
COC(=O)C1=C(C)N(c2ccc(Cl)cc2)C(C)=C(C(=O)OC)C1c1ccc(-c2ccc(F)c(Cl)c2)o1,H37Rv,,BACTEC / radiometric,inhibition,6.25 µg/mL,7%
Brc1ccc(Nc2nnc3nc(-c4ccccc4)c(-c4ccccc4)nn23)cc1,H37Rv,,BACTEC,MIC bound,,≤12.5 µg/mL
CCCCc1cn(Cc2ccc(Oc3ccc(Cl)cc3Cl)c(O)c2)nn1,H36Rv,,MTT,MIC,,0.6 µg/mL
NCCn1[nH]c(=O)c2cccnc2c1=O,H37Rv,,resazurin,inhibition,6.25 µg/mL,4%
NNC(=O)c1ccncc1,H37Rv,,resazurin,MIC99,,0.098 µg/mL
CN(CCCCC(O)CN(C)C(=S)S)C(=S)S,H37Rv,,BACTEC,inhibition,12.5 µg/mL,10%
CCc1nc2ccc(C)cc2c2nc3ccccc3n12,H37Rv,,resazurin,MIC99,,25 µg/mL
CCCCCCCCCCCCOC(=O)c1cc(O)c(O)c(O)c1,,,,MIC50,,32 µg/mL
Brc1ccc2ncn3c4ccccc4nc3c2c1,H37Rv,,resazurin,MIC99,,3.125 µg/mL
NC(=O)c1ncn([C@@H]2O[C@H](CO)[C@@H](O)[C@H]2O)n1,,,,MIC90,,64 µg/mL
COc1ccc(S(=O)(=O)NC(=S)S)cc1,EMB-R,,,MIC,,>12.8 µg/mL
COC(=O)C1=C(C)N(c2ccc(C)cc2)C(C)=C(C(=O)OC)C1c1ccc(-c2ccc(F)c(Cl)c2)o1,H37Rv,,BACTEC / radiometric,inhibition,6.25 µg/mL,9%
CCCCCCCCCS(=O)(=O)C[C@@H]1O[C@H](CO)[C@@H](O)[C@@H]1O,H37Rv,,,inhibition,6.25 µg/mL,0%
O=C1CCCCCCCCCCOCCCCO1,H37Rv,,BACTEC,inhibition,12.5 µg/mL,19%
C[C@H]1COc2c(N3CCN(C)CC3)c(F)cc3c(=O)c(C(=O)O)cn1c23,19 strains,,,MIC50,,>0.25 µg/mL
O=C(O)CCC(NC(=O)c1ccc(-n2nc3ccc(O)cc3nc2=O)cc1)C(=O)O,H37Rv,,BACTEC,MIC bound,,>12.5 µg/mL
CC1COc2c(N3CCN(C)CC3)c(F)cc3c(=O)c(C(=O)O)cn1c23,250 isolates,,,MIC90,,2 µg/mL
CC[C@H]1OC(=O)[C@H](C)[C@@H](O[C@H]2C[C@@](C)(OC)[C@@H](O)[C@H](C)O2)[C@H](C)[C@@H](O[C@@H]2O[C@H](C)C[C@H](N(C)C)[C@H]2O)[C@](C)(OC)C[C@@H](C)C(=O)[C@H](C)[C@@H](O)[C@]1(C)O,Isolate 2225,,,MIC,,>4 µg/mL
Oc1cc(Cl)ccc1Oc1ccc(Cn2cc(-c3ccccc3)nn2)cc1Cl,H37Rv,,MTT,MIC,,>100 µg/mL
CCCc1nc2ccc(C)cc2c2nc3ccccc3n12,H37Rv,,resazurin,MIC99,,0.4 µg/mL
O=C(Nc1ccccc1F)C1(c2cccs2)CCOCC1,CDC1551,,turbidity,EC50,,200 µM
COc1ccc(-c2nc3ccc(Cl)cc3[nH]2)cc1OC,H37Rv,,radiometric,MIC,,>500 µM
CC(=O)NNc1nc(C)c(C(=O)C=Cc2ccccc2Cl)s1,H37Rv,,resazurin,MIC bound,,>6.25 µg/mL
C[C@]1(COc2ccc(N3CCC(Oc4ccc(OC(F)(F)F)cc4)CC3)cc2)Cn2cc([N+](=O)[O-])nc2O1,ATCC 25618 (H37RV),,,MIC,,0.012 µg/mL
O=C(Cc1c[nH]c2ccccc12)N=Nc1c(O)[nH]c2ccccc12,H37Rv,,BACTEC,inhibition,12.5 µg/mL,-13%
C=CC(C)(C)c1c2c(c(O)c3ccc(=O)oc13)C(=O)CC(C)(C)O2,,,,MIC,,200 µg/mL
CCCCCCCCOCC(O)CNCCNCC(O)COCCCCCCCC,H37Rv,,,MIC bound,,<6.25 µg/mL
C=C(NC(=O)c1csc(-c2nc3c(cc2O)-c2nc(cs2)C(=O)N[C@@H]([C@@H](C)O)C(=O)N/C(=C(\C)OC)c2nc(cs2)C(=O)N[C@@H]2c4nc(cs4)C(=O)N[C@@H](COC(=O)c4c5c6c(cccc6n4O)COC(=O)[C@@H](O[C@H]4C[C@](C)(O)[C@H](N(C)C)[C@H](C)O4)[C@H]2OC5)c2nc-3cs2)n1)C(N)=O,Clinical isolate 30034,,broth dilution,MIC,,≤2.5 µM
Cc1cc(=O)c2cc(N(C)C)ccc2[nH]1,H37Rv,,BACTEC,inhibition,12.5 µg/mL,-22%
CC1COc2c(N3CCN(C)CC3)c(F)cc3c(=O)c(C(=O)O)cn1c23,SMI 1,,BACTEC,MIC,,0.5 µg/mL
C=CC(C)(C)c1c2c(c(O)c3ccc(=O)oc13)C=CC(C)(C)O2,,,,MIC,,100 µg/mL
CN(C)c1ccc([C@@H]2[C@@H](Cl)C(=O)N2NC2=Nc3ccccc3Sc3ccccc32)cc1,H37Rv,,broth dilution,MIC,,1000 µg/mL
O=C(NNC(=O)c1ccc([N+](=O)[O-])cc1)c1ccc([N+](=O)[O-])cc1,H37Rv,,resazurin,MIC bound,,>6.25 µg/mL
CCCCCCCCCCCCP(=O)([O-])C[C@@H]1O[C@H](CO)[C@@H](O)[C@@H]1O,H37Rv,,,EC50,,>6.25 µg/mL
CN(C)c1ccc(/C=N/NC(=O)c2ccco2)cc1,H37Rv,,BACTEC,MIC,,≥12.5 µg/mL
Cc1cc(CC(=O)NCc2ccc(Oc3ccc(Cl)cc3O)c(Cl)c2)on1,H37Rv,,MTT,MIC,,100 µg/mL
O=C(Nc1ccc(Oc2ccccc2)cc1)C1(c2cccs2)CCOCC1,CDC1551,,turbidity,EC50,,34.41 µM
COc1ccc(/C=C/C(=O)c2c(O)cc(O[C@@H]3O[C@H](CO)[C@@H](O)[C@H](O)[C@H]3O[C@@H]3O[C@@H](C)[C@H](O)[C@@H](O)[C@H]3O)cc2O)cc1O,,,,MIC90,,>128 µg/mL
CCOC(=O)C1=C(C)N(c2ccccc2[N+](=O)[O-])C(C)=C(C(=O)OCC)C1c1ccc(-c2ccc(F)c(Cl)c2)o1,H37Rv,,BACTEC / radiometric,inhibition,6.25 µg/mL,22%
CC[C@@H](CO)NCCN[C@@H](CC)CO,H37Rv,,resazurin,MIC99,,1.56 µg/mL
CC(=O)Nc1ccc(NC(=O)C2(c3cccs3)CCOCC2)cc1,CDC1551,,turbidity,EC50,,200 µM
C=CC(C)(C)c1c2c(c(OC)c3ccc(=O)oc13)C(=O)CC(C)(C)O2,,,,MIC,,50 µg/mL
CCCCCCCCP(=O)([O-])C[C@@H]1O[C@H](CO)[C@@H](O)[C@@H]1O,H37Rv,,,EC50,,>6.25 µg/mL
CCN(CC)c1ccc(N=C2C=C(C(=O)Nc3ccccc3)C(=O)c3ccccc32)cc1,H37Rv,,BACTEC,inhibition,12.5 µg/mL,-3%
Cc1c(F)c(N2CCNC(C)C2)cc2c1c(=O)c(C(=O)O)cn2C1CC1,206 isolates (susceptible),,,MIC50,,1 µg/mL
O=C1C=C(Nc2ccc(O)cc2)c2ccccc2C1=O,H37Rv,,resazurin,MIC bound,,>6.25 µg/mL
NC(=O)c1cnccn1,H37Rv,INH resistant,resazurin,MIC99,,50.77 µg/mL
CCOC(=O)C1=C(C)N(c2ccc(F)cc2)C(C)=C(C(=O)OCC)C1c1ccc(-c2ccc(F)c(Cl)c2)o1,H37Rv,,BACTEC / radiometric,inhibition,6.25 µg/mL,25%
NNC(=O)c1ccncc1,Clinical isolate 10525,Rifampicin- and isoniazid-resistant,broth dilution,MIC,,≤10 µM
Cc1ccc(NC(=O)OC(C)C)cc1Cl,H37Rv,,BACTEC,MIC bound,,>12.5 µg/mL
CCCCc1nc2ccc(Br)cc2c2nc3ccccc3n12,H37Rv,INH resistant,resazurin,MIC99,,6.25 µg/mL
COc1cc(C2SCC(=O)N2NC2=Nc3ccccc3Sc3ccccc32)cc(OC)c1OC,H37Rv,,broth dilution,MIC,,500 µg/mL
Cc1ccc(NC(=O)C2(c3cccs3)CCOCC2)cc1Cl,CDC1551,,turbidity,EC50,,200 µM
CO[C@H]1/C=C/O[C@@]2(C)Oc3c(C)c(O)c4c(O)c(c(/C=N/N5CCN(C)CC5)c(O)c4c3C2=O)NC(=O)/C(C)=C\C=C\[C@H](C)[C@H](O)[C@@H](C)[C@@H](O)[C@@H](C)[C@H](OC(C)=O)[C@@H]1C,Clinical isolate 12850,,broth dilution,MIC,,≤0.1 µM
O=C1CN(N2C(=O)CSC2C23CC4CC(CC(C4)C2)C3)C(=O)CN1c1ccccc1,H37Rv,,,MIC bound,,>12.5 µg/mL
CCCCCCCCCCP(=O)([O-])C[C@@H]1O[C@H](CO)[C@@H](O)[C@@H]1O,H37Rv,,,inhibition,6.25 µg/mL,0%
COc1cc(C=O)cc2c1[nH]c1ccccc12,,,,MIC,,>200 µg/mL
c1ccc2[nH]c(-c3ccnc4ccccc34)nc2c1,H37Rv,,radiometric,MIC,,>500 µM
CCCCCCCCCCCCCCCCCCCCP(=O)([O-])C[C@@H]1O[C@H](CO)[C@@H](O)[C@@H]1O,H37Rv,,,inhibition,6.25 µg/mL,0%
CO/C(C)=C1/NC(=O)[C@H]([C@@H](C)O)NC(=O)c2csc(n2)-c2cc(O)c(-c3nc(C(=O)NCCCN4CCOCC4)cs3)nc2-c2csc(n2)[C@@H]2COC(=O)c3c4c5c(cccc5n3O)COC(=O)[C@@H](O[C@H]3C[C@](C)(O)[C@H](N(C)C)[C@H](C)O3)[C@@H](OC4)[C@H](NC(=O)c3csc1n3)c1nc(cs1)C(=O)N2,Clinical isolate 565,Rifampicin- and isoniazid-resistant,broth dilution,MIC,,≤25 µM
CC(C)CCO[C@@H]1C=C[C@H](O)[C@@H](CO)O1,H37Rv,,BACTEC / radiometric,MIC,,>50 µg/mL
NC(=O)C(Cc1ccc(O)cc1)NC(=O)c1cccnc1,H37Rv,,BACTEC,MIC,,≥12.5 µg/mL
COc1ccc(-c2nc3ccc([N+](=O)[O-])cc3[nH]2)cc1OC,H37Rv,,radiometric,MIC,,>500 µM
Cc1ccc([C@@H]2[C@@H](Cl)C(=O)N2NC2=Nc3ccccc3Sc3ccccc32)cc1,H37Rv,,broth dilution,MIC,,1000 µg/mL
CO[C@H]1/C=C/O[C@@]2(C)Oc3c(C)c(O)c4c(O)c(c(/C=N/N5CCN(C)CC5)c(O)c4c3C2=O)NC(=O)/C(C)=C\C=C\[C@H](C)[C@H](O)[C@@H](C)[C@@H](O)[C@@H](C)[C@H](OC(C)=O)[C@@H]1C,H37Ra,,resazurin,MIC,,0.05–0.1 µg/mL
COc1ccccc1C(=O)C1N=C(c2ccccc2)OC1=O,H37Rv,,BACTEC,inhibition,12.5 µg/mL,35%
CCCn1cnc2cc(NCc3ccc(Cl)cc3Cl)ccc21,,,GFP,MIC,,37.5 µM
O=C(Nc1ccccc1)c1ccc(Oc2ccc(Cl)cc2Cl)c(O)c1,H37Rv,,MTT,MIC,,>100 µg/mL
O=C1[C@H](Cl)[C@@H](c2ccccc2Cl)N1NC1=Nc2ccccc2Sc2ccccc21,H37Rv,,broth dilution,MIC,,100 µg/mL
CN(C)c1ccc(-c2nc3c(=O)n(C)c(=O)n(C)c3nc2-c2ccc(N(C)C)cc2)cc1,H37Rv,,BACTEC,MIC bound,,>12.5 µg/mL
COc1ccc2cc3[n+](cc2c1OC)CCc1cc2c(cc1-3)OCO2,,,,MIC90,,128 µg/mL
COc1ccc2nc(-c3ccc(OC)c(OC)c3)[nH]c2c1,H37Rv,,radiometric,MIC,,>500 µM
CCCCN(CCCC)C(=O)c1ccc(Oc2ccc(Cl)cc2Cl)c(O)c1,H37Rv,,MTT,MIC,,>100 µg/mL
CCCCCCCCCCCCCCCCCCCCS(=O)(=O)C[C@@H]1O[C@H](CO)[C@@H](O)[C@@H]1O,H37Rv,,,inhibition,6.25 µg/mL,4%
O=[N+]([O-])c1ccc(-c2nc3ccccc3[nH]2)cc1,H37Rv,,radiometric,MIC,,>500 µM